A word on the inhibition: it is the relative decrease from the control value, in per cent.

Data on 28 compounds can be found in PubChem BioAssay AID488862 (Broad Institute, 2010).

The entries are a selection whose mix differs from that of the whole data set. Calls of active or inactive are those of the source. Cut-off read from the data, not from the text of the source: active = inhibition above about 52%; inactive = the rest.

The nature of this experiment: suppresses PrP 5' UTR mRNA reporter expression (AID 488862). Note: 0 = median of the neutral control wells. Particulars: cell-based PrP 5' UTR mRNA reporter, plate reader; stronger effect = higher value; concentration not given here.
`Cc1cc(C)cc(N(C(=O)c2ccccc2)C2CCN(C(=O)OC(C)(C)C)CC2)c1`: the inhibition was inactive: -19.5%.

As to `O=C(NCC1(N2CCCCC2)CCCCC1)c1ccc(Cl)nc1`, the inhibition is inactive: -2.76%.

For `O=C(NCC1(N2CCOCC2)CCCCC1)c1cc2ccccc2o1`, the inhibition is inactive: -16.4%.

With `COc1ccc(Cl)cc1C(=O)NCC1(N2CCOCC2)CCCCC1`, the inhibition is inactive: -9.7%.

Regarding `O=C(OC1CN2CCC1CC2)C1c2ccccc2Oc2ccccc21` (stereo not drawn), the inhibition was inactive: -30.6%.

Consider `O=C(NCC1(N2CCCCC2)CCCCC1)c1ccc(Cl)s1`, for which the inhibition is inactive: 8.22%.

Turning to `N#CC1(Nc2ccccc2)CCN(Cc2ccccc2)CC1`, the inhibition was inactive: -12.8%.

Turning to `CCOC(=O)N1CCC(Nc2ccc(OC)cc2)CC1`, the inhibition is inactive: -12.9%.

On to `CC(C)(C)OC(=O)N1CCC(N(C(=O)c2ccccc2)c2ccc(F)cc2)CC1`, for which the inhibition was inactive: -14.4%.

On to `COc1ccc(C(=O)NCC2(N3CCCCC3)CCCCC2)c(OC)c1OC`, for which the inhibition is inactive: -0.113%.

For `COc1ccc(C(=O)NCC2(N3CCCCC3)CCCCC2)cc1`, the inhibition is inactive: -16.6%.

Turning to `O=C(NCC1(N2CCCCC2)CCCCC1)c1cccs1`, the inhibition is inactive: -6.86%.

With `O=C(NCC1(N2CCCCC2)CCCCC1)c1ccc(=O)[nH]c1`, the inhibition is inactive: -5.56%.

As to `Cc1cccc(NC2(C#N)CCN(Cc3ccccc3)CC2)c1`, the inhibition was inactive: -21.4%.

As to `CSc1ccccc1C(=O)NCC1(N2CCCCC2)CCCCC1`, the inhibition is inactive: -11.8%.

In the case of `COc1cc(C(=O)NCC2(N(C)C)CCCCC2)ccc1OC(F)F`, the inhibition is inactive: -19.9%.

`CCOC(=O)N1CCC(Nc2cccc(C)c2)CC1`: the inhibition was inactive: -29.5%.

Take `O=C1CCN(Cc2ccccc2)CC1`: the inhibition was inactive: 19.4%.

On to `CCOc1ccc(C)cc1CN(CCCl)CCCl`, for which the inhibition was inactive: -9.49%.

As for `CCOC(=O)N1CCC(Nc2ccc(F)cc2)CC1`, the inhibition is inactive: -6.3%.

As to `O=C(NCC1(N2CCCCC2)CCCCC1)c1ccc(F)cc1`, the inhibition was inactive: -7.85%.

For `O=P1(N(CCCl)CCCl)SCCCS1`, the inhibition was inactive: 1.97%.

`CCCCOc1ccc(C(=O)NCC2(N3CCOCC3)CCCCC2)cc1`: the inhibition was inactive: 1.63%.

For the compound `O=C(NCC1(N2CCCCC2)CCCCC1)c1cccc(C(F)(F)F)c1`, the inhibition is inactive: -14%.

Regarding `COc1cc(C(=O)NCC2(N3CCCCC3)CCCCC2)ccc1OC(F)F`, the inhibition was inactive: 0.18%.

As to `O=C(NCC1(N2CCOCC2)CCCCC1)c1cc(=O)[nH]c2ccccc12`, the inhibition was inactive: -21.3%.

On to `CN1CCN(CCOC(=O)C(O)(c2ccccc2)c2ccccc2)CC1`, for which the inhibition is inactive: -29.9%.

Consider `CC(C)c1ccc(C(=O)NCC2(N3CCOCC3)CCCCC2)cc1`, for which the inhibition was inactive: -34.2%.
